The text below walks through data of patent US10173974B1, “Natural product-based synthesis of novel anti-infective isothiocyanate- and isoselenocyanate-functionalized amphilectane diterpenes” (priority 2015, dated 2019).

Data set [1] deals with P. falciparum Dd2 (drug resistant). Put plainly: SYBR Green parasite proliferation assay, P. falciparum Dd2 strain. It is filed as cell-based, Plasmodium falciparum.
Data set [2] relates to Mtb H37Rv (ATCC 27 294). Put plainly: Microplate Alamar blue assay (MABA), antitubercular activity. It counts as cell-based, Mycobacterium tuberculosis.
In data set [3] the test system is P. falciparum 3D7 (chloroquine-sensitive). Put plainly: SYBR Green parasite proliferation assay, P. falciparum 3D7 strain. It is filed as cell-based, Plasmodium falciparum.
Setting [4] is: Selectivity index, Vero cells vs Dd2 (CQ-resistant strain).
[5] abbreviates: Selectivity index, Vero cells vs Mtb H37Rv.
Where [6] appears, read: Selectivity index, Vero cells vs 3D7 (CQ-sensitive strain).

Where two headings read alike, the source gives them in different places.

On to `C=C1CC[C@@]2(N=C=[Se])[C@H]3[C@H](CC[C@@H]2C)[C@@H](C)C[C@@H](CC(C)(C)N=C=[Se])[C@H]13` [Compound 5, 8,15-Diisoselenocyano-11(20)-amphilectene], for which, in data set [1] (setting [4]), the “SI (a): IC50 Vero / IC50 Dd2” value is on record as 7356. Further, in data set [2] (setting [5]), the “SI (c): IC50 Vero / MIC M. tuberculosis H37Rv” value is recorded as 12.4. For the same compound, the “SI (b): IC50 Vero / IC50 3D7” value in data set [3] (setting [6]) was 19420.
For the compound `C=C(C)C[C@@H]1C[C@H](C)[C@H]2CC[C@H](C)[C@@]3(N=C=[Se])CCC(=C)[C@@H]1[C@H]23` [Compound 6, 8-Isoselenocyanoamphilecta-11(20),15-diene], the “SI (a): IC50 Vero / IC50 Dd2” value in data set [1] is listed as 639. In data set [2], the “SI (c): IC50 Vero / MIC M. tuberculosis H37Rv” value stood at 45.3. In data set [3], the “SI (b): IC50 Vero / IC50 3D7” value was determined as 505.
On to `[C-]#[N+]C(C)(C)CC1CC(C)C2CCC(C)C3([N+]#[C-])CCC(=C)C1C23` (single isomer, unassigned; (-)) [Compound 1, (−)-8,15-diisocyano-11(20)-amphilectene, reference compound], for which, in data set [1] (setting [4]), the “SI (a): IC50 Vero / IC50 Dd2” value was 32174. For the same compound, the “SI (c): IC50 Vero / MIC M. tuberculosis H37Rv” value in data set [2] (setting [5]) was determined as 10.2. For the same compound, the “SI (b): IC50 Vero / IC50 3D7” value in data set [3] (setting [6]) was found to be 83117.
With `C=C1CC[C@@]2(N=C=S)[C@H]3[C@H](CC[C@@H]2C)[C@@H](C)C[C@@H](CC(C)(C)N=C=S)[C@H]13` [Compound 2, 8,15-Diisothiocyano-11(20)-amphilectene], the “SI (a): IC50 Vero / IC50 Dd2” value in data set [1] (setting [4]) was over 9. For the same compound, in data set [2], the “SI (c): IC50 Vero / MIC M. tuberculosis H37Rv” value was over 1.0. Also, in data set [3] (setting [6]), the “SI (b): IC50 Vero / IC50 3D7” value is reported as over 8.
For `CCN(CC)CCCC(C)Nc1ccnc2cc(Cl)ccc12` (centres unmarked) [CQ, chloroquine, reference compound], in data set [1], the “SI (a): IC50 Vero / IC50 Dd2” value worked out at 4518. Also, the “SI (b): IC50 Vero / IC50 3D7” value in data set [3] is 21511.
